A mixed list of measured activities; the numbers were collected in NIAID ChemDB.

Shared fields: toxicity to cultured cells; cell line: TZM-bl; read-out: CC50

CCn is the concentration with n% toxicity to the cells.

CCOC(=O)C(O)(c1c[nH]c2ccc(F)cc12)C(F)(F)F ; method: MTT ; result: 102 µM
C(=Nc1ccccc1)c1cc2ccccc2nc1Nc1ccccc1 ; method: MTT ; result: 77.95 µM
Cc1ccc([C@]2(CCl)OC(=O)c3ccccc32)cc1 ; method: MTT ; result: 146.7 µM
Clc1cc(/C=C/c2ccc(-c3ccccc3)cc2)nc2ccccc12 ; method: MTT ; result: 78.11 µM
CCC(=C/[C@H](C)C/C=C/C(C)=C/[C@@H](C)C(=O)[C@@H](C)[C@H](O)[C@@H](C)C/C(C)=C/C(=O)O)/C=C/[C@@H]1OC(=O)C=C[C@@H]1C ; method: ATP / luminescence ; result: 0.016 µM
COc1cccc(-c2nnc(-c3ccc4cccc(OC)c4n3)o2)c1 ; method: MTT ; result: 695 µM
O=C(O)c1ccc(C2=N/C(=C/c3c(O)n(Cc4ccccc4)c(=S)[nH]c3=O)C=C2)cc1O ; method: XTT ; result: >20 µM
CC1=C\[C@@H](C)[C@@H](CC(C)C)OC(=O)/C=C/C=C/C=C/CCCCC[C@@H](OS(=O)(=O)O)[C@H](O)[C@]2(O)O[C@@H](C[C@H](O)[C@H]2C)[C@@H](C)C(=O)\C=C\1 ; result: 8.18 µM
COc1cccc2ccc(-c3nnc(-c4ccncc4)o3)nc12 ; method: MTT ; result: 208 µM
Cc1ccc(-c2ccc3c(c2)C=C(C(=O)Nc2ccc(C[N+](C)(C)C4CCOCC4)cc2)CCC3)cc1 ; result: >10 µM
COC(=O)C(O)(c1cn(C(=O)OC(C)(C)C)c2ccccc12)C(F)(F)F ; method: MTT ; result: 50.1 µM
Cc1ccc(C)c2c1[nH]c1c(Cl)cccc12 ; result: 13.6 µM
Cc1ccnc2c1NC(=O)c1cccnc1N2C1CC1 ; result: 81.8 µM
CCOC(=O)c1cccc(Cn2ccc3ccc(-c4ccc5ccn(Cc6cccc(C(=O)O)c6)c5c4)cc32)c1 ; method: resazurin ; result: >50 µM
CCOC(=O)C(O)(c1cn(C)c2ccccc12)C(F)(F)F ; method: MTT ; result: 232 µM
CC/C=C(\C)C[C@H](C)[C@H](O)[C@@H](C)[C@H]1O[C@@]2(C[C@@H](OC)[C@H]1C)O[C@H]([C@@H](C)[C@@H](O)[C@@H](C)/C=C/C=C/C=C/C=C/C=C/[C@@H](CC(=O)O)OC)[C@@H](C)C[C@@H]2O ; result: 0.35 µM
COc1cc(/C=C/c2cc(Cl)c3ccccc3n2)cc(OC)c1 ; method: MTT ; result: 66 µM
CCOC(=O)C(N)(C1=CNC2C=CC=C(O)C12)C(F)(F)F ; method: MTT ; result: >132 µM
CCC(Cl)C1(c2ccc(F)cc2)OC(=O)c2ccc(Cl)cc21 ; method: MTT ; result: 237 µM
CCOC(=O)C(O)(c1c[nH]c2ccccc12)C(F)(F)F ; method: MTT ; result: 285 µM
O=C(O)[C@@H](CS(=O)(=O)c1ccc([N+](=O)[O-])cc1)NC(=O)C1(c2ccc3ccccc3c2)CCN(Cc2ccc3ccccc3c2)CC1 ; method: luminescence ; result: 60.27 µM
CCOC(=O)C(O)(c1c[nH]c2ccc(Cl)cc12)C(F)(F)F ; method: MTT ; result: 138 µM
CO[C@H]1CCCC[C@@H](c2ccccc2)OC(=O)C(C)[C@@]2(O)OC([C@@H](C)[C@H](O)[C@H]2OC)[C@@H](C)/C=C/[C@H]1OC ; method: ATP ; result: >10 µM
CCOC(=O)C(O)(c1cn(CCC(C)C)c2ccccc12)C(F)(F)F ; method: MTT ; result: 147 µM
Cc1ccnc2c1NC(=O)c1cccnc1N2C1CC1 ; method: MTT ; result: 150 µM
Cc1ccc(-n2ncc3c(=O)[nH]c(C)cc32)cc1 ; method: MTT ; result: 383 µM
CCOC(=O)C(O)(c1c[nH]c2ccc(C=O)cc12)C(F)(F)F ; method: MTT ; result: 135 µM
Cc1nnc(C(C)C)n1C1C[C@H]2CC[C@@H](C1)N2CC[C@H](NC(=O)C1CCC(F)(F)CC1)c1ccccc1 ; method: XTT ; result: >20 µM
COC(=O)C(N)(c1c[nH]c2ccccc12)C(F)(F)F ; method: MTT ; result: 95.51 µM
Cc1ccc(C)c2c1[nH]c1cc(Cl)ccc12 ; result: 7.3 µM
Cc1[nH]c2ccccc2c1CC(=O)NC(Cc1ccccc1)C(=O)N(C)c1ccccc1 ; method: MTT ; result: 47 µM
CCOC(=O)C(N)(C1=CNC2C=C(C)C=CC12)C(F)(F)F ; method: MTT ; result: 69.9 µM
NC1C(O)OC(CO)C(O)C1O ; method: MTT / absorbance ; result: 20.53 µM
CCCCCOC(=O)C[C@H](NP(=O)(CO[C@@H](CF)COc1nccc(N)n1)Oc1ccccc1)C(=O)OCCCCC ; method: luminescence ; result: 42.19 µM
CC(Cl)C1(c2ccc(Cl)cc2)OC(=O)c2ccccc21 ; method: MTT ; result: 201 µM
Cc1cn([C@H]2C[C@H](N=[N+]=[N-])[C@@H](CO)O2)c(=O)[nH]c1=O ; method: MTT ; result: 872 µM
CCCCCOC(=O)C[C@H](NP(=O)(COC(CF)Cn1ccc(N)nc1=O)Oc1ccccc1)C(=O)OCCCCC ; method: visual reading ; result: 54.19 µM
Clc1cc(/C=C/c2cccs2)nc2ccccc12 ; method: MTT ; result: 52.62 µM
COC(=O)c1cccc2[nH]cc(C(O)(C(=O)OC)C(F)(F)F)c12 ; method: MTT ; result: 199 µM
O=C1OC(C(Cl)c2ccccc2F)c2ccccc21 ; method: MTT ; result: 119 µM
Cc1ccc(-c2ccc3c(c2)C=C(C(=O)Nc2ccc(C[N+](C)(C)C4CCOCC4)cc2)CCC3)cc1 ; method: MTT ; result: 134 µM
C[C@H]1CCCC[C@@H]1Oc1cc(CCc2ccccc2)[nH]c(=O)c1I ; method: XTT / absorbance ; result: >300 µM
CCC(Cl)C1(c2ccc(F)cc2)OC(=O)c2ccc(C)cc21 ; method: MTT ; result: 252 µM

The first 6 rows once more:

{"structure": "CCOC(=O)C(O)(c1c[nH]c2ccc(F)cc12)C(F)(F)F", "method": "MTT", "result": "102 µM"}
{"structure": "C(=Nc1ccccc1)c1cc2ccccc2nc1Nc1ccccc1", "method": "MTT", "result": "77.95 µM"}
{"structure": "Cc1ccc([C@]2(CCl)OC(=O)c3ccccc32)cc1", "method": "MTT", "result": "146.7 µM"}
{"structure": "Clc1cc(/C=C/c2ccc(-c3ccccc3)cc2)nc2ccccc12", "method": "MTT", "result": "78.11 µM"}
{"structure": "CCC(=C/[C@H](C)C/C=C/C(C)=C/[C@@H](C)C(=O)[C@@H](C)[C@H](O)[C@@H](C)C/C(C)=C/C(=O)O)/C=C/[C@@H]1OC(=O)C=C[C@@H]1C", "method": "ATP / luminescence", "result": "0.016 µM"}
{"structure": "COc1cccc(-c2nnc(-c3ccc4cccc(OC)c4n3)o2)c1", "method": "MTT", "result": "695 µM"}

Neighbouring rows are from separate reports.